Test results taken from paper PMC5962072, “Structural insights on the efficient catalysis of hydroperoxide reduction by Ohr: Crystallographic and molecular dynamics approaches” (PLoS ONE, 2018).

Target: Cys61 (UniProt position 61, AGYSACFIGAL)
Test: chemical modification
Settings: room temperature; buffers (50 mM) at different pH values; identities not stated; Reduced (dithiol) protein after DTT treatment and desalting; no ligand.

Substance | pKa
Organic hydroperoxide resistance protein (Ohr, XfOhr) E51A (Xylella fastidiosa; E51A) | 7.20 (± 0.11)
Organic hydroperoxide resistance protein (Ohr, XfOhr) R19A (Xylella fastidiosa; R19A) | 8.09 (± 0.11)
